According to publication PMC8601423 (PLoS ONE, 2021):

Target: human ACE2-Fc (Q18-S740) recombinant protein (human, UniProt Q9BYF1 18-740)
Test: fluorescence polarisation

SKVGGNYNYLYRLFRKK [RBM1 (C-FITC)]
Kd: 207 nM
